For 2 compounds, IC50 results are on record in PMC11676875, “In Vitro Screening of an In-House Library of Structurally Distinct Chemotypes Towards the Identification of Novel SARS-CoV-2 Inhibitors” (Pharmaceuticals, 2024).

This is a selection: effects in other tests are not listed, and their absence says nothing.

The subject of the assay is SARS-CoV-2.

One may read the IC50 as the point on the concentration scale where inhibition reaches its midpoint.

Consider `Cc1ccc2c(c1)nc(Cn1nnc3ccccc31)n2CCN(C)C`, for which the IC50 was > 20 µM. As for `CN(C)CCn1c(Cn2nnc3ccccc32)nc2cc(Cl)ccc21`, the figure is > 60 µM.
